## Screening data, single-dose tests

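Phenotypic screen: M. tuberculosis growth, glucose 7H9 medium, 3 days; the read-out is not stated. Tested at 500 µM. Higher reads as more growth inhibition (inferred: compounds with an IC50 in retests scored well above the rest). Size under these conditions: about 18,000 compounds, about 1,400 of them at 50% or above in at least one test.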

Each number is a percent effect as filed.
The controls that fix the scale are not given in the record; negative values are as filed.
Many other results are left out here, so strong results are more common than in the screen.

For c1ccc(N2CCN3CCCCC3C2)nc1 (centres undefined) the result was 26.4%. With Cc1ccc(NCc2ncc[nH]2)c(F)c1 the screen gave 57.92%. With CC(C)N(C)S(=O)(=O)N1CCCN(C)CC1 the screen gave 1.436%. CC(=O)c1cccc(S(=O)(=O)N(C)CC(=O)N(C)C)c1 gave 0.1184%. With CC(=O)Nc1ccc(F)c(C(=O)OCC2CCCO2)c1 (centres undefined) the screen gave 32.66%.

For N#Cc1cccc(CNc2ccncc2F)c1 the result was -8.361%. Cc1cc(NC(=O)c2ccc(Cl)cn2)nc(=O)[nH]1 gave -5.952%. Cc1cccc(C(=O)N2CCN(S(N)(=O)=O)CC2)c1 read 14.85%. With CC(C)c1nccn1CCCN the screen gave 8.878%. With CCCN1CCC(NC(=O)CN2CSCC2=O)CC1 the screen gave -5.308%.

For Cc1cc(C(=O)N2CCN(Cc3ccsc3)CC2)[nH]n1 the result was 77.11%. For O=S(=O)(NCc1nccs1)N1CCc2ccccc2C1 the result was 75.93%. For CC(N)C(=O)Nc1ccc(-n2nccn2)cc1 (centres undefined) the result was 36.62%. For CN(C)c1ccc(C(=O)NC[C@@H]2CCCO2)cn1 the result was 20.64%. With Cc1ccc(CNC(C(N)=O)c2ccccc2)o1 (centres undefined) the screen gave 4.94%.

COc1cccc(CNc2nc(C)no2)c1 gave 58.31%. Result for Cc1cc(C(N)=O)n[nH]1 was 7.903%. With CN1CCCN(C(=O)CCc2ccsc2)CC1 the screen gave 39.42%. With CN(C)C(=O)CN1CCOC(c2ccccc2)C1 (centres undefined) the screen gave 24.16%. Result for O=C(c1cnn(-c2ccccc2)c1)N1CCCCC1 was -15.41%.

With CSCC(C)CNC(=O)c1cnccn1 (centres undefined) the screen gave -3.443%. Clc1ccc(OC2CCCNC2)nc1 (centres undefined) read 31.31%. COc1cc(C(=O)N2C[C@H](C(C)C)[C@@H](N)C2)ccc1C gave 43.89%. CCNCc1ccc2c(c1)OCO2 read 62.73%. For Cc1ccc(OC2CN(C(=O)[C@H](N)C(C)C)C2)cc1 the result was 54.26%.

With CC(=O)N1CCC(CSc2n[nH]c(=O)n2C)CC1 the screen gave 7.008%. Cc1nc(NC(=O)NCCSCCCO)sc1C gave 28.6%. For NCCCC(=O)N(Cc1ccccc1F)C1CCC1 the result was 68.11%. COC(=O)CN1C(=O)CCc2ccccc21 gave 11.83%. With CC1(C)NCCC1O (centres undefined) the screen gave -0.2476%.

Result for COc1ccccc1C(C)N(C)S(C)(=O)=O (centres undefined) was 28.41%. CSC(C)C(=O)NCc1ccnc(N2CCOCC2)c1 (centres undefined) read 21.04%. With CC[C@@H](O)CN1CCN(C(C)COC)CC1 (some centres undefined) the screen gave 8.952%. Result for O=C(c1ccc2ncsc2c1)N1CCOCC(CO)C1 (centres undefined) was 22.25%. With Cc1ccsc1C(=O)Nc1ccc2c(c1)NC(=O)CO2 the screen gave 44.1%.

With CSCc1cc(F)ccc1CNC(=O)[C@H]1CCC(=O)N1 the screen gave 19.05%. COc1cccc(F)c1C(C)N (centres undefined) read 6.185%. CN(CC(=O)N[C@@H]1COCC[C@H]1O)Cc1ccccn1 read 11.11%. CCC(CNS(=O)(=O)N(C)CC)c1ccccc1 (centres undefined) gave 75.11%. Result for O=S1(=O)CCN2CCNCC2C1 (centres undefined) was 18.85%.

CC(=O)c1ccc(Cl)c(Cl)c1OCC(=O)N(C)C read 15.11%. With CC(C)CNC(=O)C1CCCO1 (centres undefined) the screen gave 9.971%.

5 of the entries, repeated:

For CCCN1CCC(NC(=O)CN2CSCC2=O)CC1 the result was -5.308%.
For COc1cc(C(=O)N2C[C@H](C(C)C)[C@@H](N)C2)ccc1C the result was 43.89%.
For CC(C)CNC(=O)C1CCCO1 (centres undefined) the result was 9.971%.
For Cc1ccc(OC2CN(C(=O)[C@H](N)C(C)C)C2)cc1 the result was 54.26%.
For CN(C)c1ccc(C(=O)NC[C@@H]2CCCO2)cn1 the result was 20.64%.

The values are deposited in ChEMBL (CHEMBL3988442, “University of Dundee, Small-Polar-MMV Screening Library” (2021)).